# Reference: patent US10273235B2, “Compositions and methods for inhibiting β-lactamase” (LegoChem Biosciences, Inc., priority 2015, dated 2019)
# Key:
# Assay type in all cases: cell-based
# Conditions in all cases: BLI fixed 4 ug/ml; incubation 19 h
# K. pneumoniae KU2 = experiment: BLI potentiation MIC, K. pneumoniae KU2
# K. pneumoniae 5971(KOX) = experiment: BLI potentiation MIC, K. pneumoniae 5971(KOX)
# K. pneumoniae 7586 = experiment: BLI potentiation MIC, K. pneumoniae 7586
# K. pneumoniae 23 = experiment: BLI potentiation MIC, K. pneumoniae 23
# K. pneumoniae 6839 = experiment: BLI potentiation MIC, K. pneumoniae 6839 (SHV-11, SHV-12, DHA-1)
# K. pneumoniae 89 = experiment: BLI potentiation MIC, K. pneumoniae 89
# K. pneumoniae 100 = experiment: BLI potentiation MIC, K. pneumoniae 100
smiles,measurement,setting,value
NCCONC(=O)[C@@H]1CC[C@@H]2CN1C(=O)N2OS(=O)(=O)O [OP-595],MIC of LCB10-0200 with BLI,K. pneumoniae KU2,8 μg/mL and 2 μg/mL
same,MIC of Meropenem with BLI,K. pneumoniae 5971(KOX),"16 μg/mL, 4 μg/mL, 2 μg/mL"
same,MIC of Meropenem with BLI,K. pneumoniae 7586,"8 μg/mL, 2 μg/mL, 1 μg/mL"
same,MIC of Meropenem with BLI,K. pneumoniae 23,16 μg/mL and 2 μg/mL
same,MIC of Meropenem with BLI,K. pneumoniae 6839,"0.25 μg/mL, 0.0625 μg/mL, 0.125 μg/mL"
same,MIC of Meropenem with BLI,K. pneumoniae 89,"4 μg/mL, 2 μg/mL, 1 μg/mL"
same,MIC of Meropenem with BLI,K. pneumoniae 100,"4 μg/mL, 2 μg/mL, 1 μg/mL"

# Some entries of the source have several records that differ or are many. This list holds those alone. The source may hold further records. The records of an entry differ for a reason that is not stated; dose, time, organism, isomer or construct need not be as stated for each record.
